PubChem BioAssay AID485275 (NMMLSC, 2010)
The list shows a part of the results, in another mix than the full data. The source made the active and inactive calls.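 How the source made its calls: active means plate passing quality check with inhibition over a set limit, or well fluorescence over plate mean plus 4 SD; inactive means the rest.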

Experiment: antifungal drug efflux pump blockers, triplex strains – S. cerevisiae, Nile Red, multiplex, primary screen (AID 485275);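 further: Nile Red retained in pooled yeast measured as flow cytometry median fluorescence; 0% = buffer negative control and 100% = Enniatin B positive control; higher means more Nile Red kept so more efflux inhibition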
Conditions: S. cerevisiae Candida pump triplex, at 10 µM, hits give high values
For `Cc1ccc(OP(=O)(Nc2ccccn2)Oc2ccc(C)cc2)cc1`, the inhibition was inactive: -0.02%.
With `CC(=O)NC(SC(=S)N(CC(C)C)CC(C)C)C(Cl)(Cl)Cl` (stereo unspecified) the inhibition was inactive: -0.26%.
With `O=C(OC1CN2CCC1CC2)c1ccccc1` (stereo unspecified) the inhibition was inactive: -0.02%.
In the case of `CCC(=O)N1C2C3N(C(=O)CC)C1C1N(C(=O)CC)C(C(N1C(=O)CC)N3C(=O)CC)N2C(=O)CC`, the inhibition is reported as inactive: 0.02%.
In the case of `Cc1ccccc1OP(=O)(Nc1ccccn1)Oc1ccccc1C`, the inhibition is reported as inactive: -0.04%.
In the case of `CC(NC(=O)COC(=O)C(O)(c1ccccc1)c1ccccc1)c1ccccc1` (stereo unspecified), the inhibition is reported as inactive: 0.53%.
For `CN(C)C(=O)Oc1noc2ccccc12`, the inhibition was inactive: 0.2%.
In the case of `O=P(Nc1ccccn1)(c1ccc(Br)cc1)c1ccc(Br)cc1`, the inhibition is reported as inactive: -0.03%.
With `CN(C)C1(CNC(=O)c2ccc(Cl)c(S(N)(=O)=O)c2)CCCCC1` the inhibition was inactive: -0.11%.
With `O=P(Nc1nc2ccccc2s1)(c1ccccc1)c1ccccc1` the inhibition was inactive: -0.13%.
In the case of `C[C@H]1OP(=O)(Oc2ccccc2)[C@H](O)[C@H](O)[C@H]1N=[N+]=[N-]` (stereo partly specified), the inhibition is reported as inactive: -0.12%.
For `O=[N+]([O-])c1ccc(O)c(/C=N/Nc2ccc([N+](=O)[O-])cc2[N+](=O)[O-])c1`, the inhibition was inactive: 0.04%.
In the case of `O=[N+]([O-])c1ncn(CCn2cnc([N+](=O)[O-])n2)n1`, the inhibition is reported as inactive: -0.06%.
In the case of `CC(=O)NC(SC(=S)N(C)C)C(Cl)(Cl)Cl` (stereo unspecified), the inhibition is reported as inactive: -0.04%.
In the case of `O=[As](O)(c1ccccc1)c1ccc(O)cc1`, the inhibition is reported as inactive: 0.16%.
In the case of `Nc1ccc([As](=O)(O)c2ccc([N+](=O)[O-])cc2)cc1`, the inhibition is reported as inactive: 0.01%.
For `C(Cc1nn[nH]n1)Cc1nn[nH]n1`, the inhibition was inactive: -0.18%.
With `O=C(OC1CN2CCC1CC2)c1cccc(Cl)c1` (stereo unspecified) the inhibition was inactive: 0.04%.
In the case of `CC(C)C(=O)NC(Sc1ccccc1)C(Cl)(Cl)Cl` (stereo unspecified), the inhibition is reported as inactive: 0.37%.
In the case of `O=P(Nc1nccs1)(c1ccccc1)c1ccccc1`, the inhibition is reported as inactive: 0.01%.
With `c1nnnn1CCn1cnnn1` the inhibition was inactive: 0.15%.
